Laboratory results taken from patent publication US20190359662A1.
Residue numbers refer to the chain shown, from its start. Names may count otherwise.

B1: [R23K]Pnc1a (peptide)
peptide: DCRYMFGDCEKDEDCCKHLGCKKKMKYCAWDFTFT
modifications: not checked
B2: [D8G]Pnc1a (peptide)
peptide: B1 peptide with D8G, K23R
modifications: not checked
B3: [E13A]Pnc1a (peptide)
peptide: B1 peptide with E13A, K23R
modifications: not checked
B4: [D8K]Pnc1a (peptide)
peptide: B1 peptide with D8K, K23R
modifications: not checked
B5: [D8N]Pnc1a (peptide)
peptide: B1 peptide with D8N, K23R
modifications: not checked
B6: [D1K]Pnc1a (peptide)
peptide: B1 peptide with D1K, K23R
modifications: not checked
B7: [K24R]Pnc1a (peptide)
peptide: B1 peptide with K23R, K24R
modifications: not checked
B8: [K24D]Pnc1a (peptide)
peptide: B1 peptide with K23R, K24D
modifications: not checked
B9: [W30A]Pnc1a (peptide)
peptide: B1 peptide with K23R, W30A
modifications: not checked
B10: [Y4A]Pnc1a (peptide)
peptide: B1 peptide with Y4A, K23R
modifications: not checked
B11: [E10K]Pnc1a (peptide)
peptide: B1 peptide with E10K, K23R
modifications: not checked
B12: [E13K]Pnc1a (peptide)
peptide: B1 peptide with E13K, K23R
modifications: not checked
B13: S0-Pnc1a (peptide)
peptide: SDCRYMFGDCEKDEDCCKHLGCKRKMKYCAWDFTFT
modifications: not checked

Key:
Test in all cases: cell-based or functional assay
hNav1.6 (human), Q9UQD0 = biological target: hNav1.6 (human), Q9UQD0
hNav1.7 (human), Q15858 = biological target: hNav1.7 (human), Q15858
hNav1.1 (human), P35498 = biological target: hNav1.1 (human), P35498
hNav1.3 (human), Q9NY46 = biological target: hNav1.3 (human), Q9NY46
hNav1.2 (human), Q99250 = biological target: hNav1.2 (human), Q99250
hNav1.5 (human), Q14524 = biological target: hNav1.5 (human), Q14524
hNav1.8 (human), Q9Y5Y9 = biological target: hNav1.8 (human), Q9Y5Y9
hNav1.4 (human), P35499 = biological target: hNav1.4 (human), P35499

Binder	IC50, membrane potential assay (hNav1.6 (human), Q9UQD0)	Selectivity for Nav1.7, membrane potential assay (hNav1.6 (human), Q9UQD0)	IC50, membrane potential assay (hNav1.7 (human), Q15858)	Selectivity for Nav1.7, membrane potential assay (hNav1.7 (human), Q15858)	IC50, membrane potential assay (hNav1.1 (human), P35498)	Selectivity for Nav1.7, membrane potential assay (hNav1.1 (human), P35498)	IC50, membrane potential assay (hNav1.3 (human), Q9NY46)	Selectivity for Nav1.7, membrane potential assay (hNav1.3 (human), Q9NY46)	IC50, membrane potential assay (hNav1.2 (human), Q99250)	Selectivity for Nav1.7, membrane potential assay (hNav1.2 (human), Q99250)	IC50, membrane potential assay (hNav1.5 (human), Q14524)	Selectivity for Nav1.7, membrane potential assay (hNav1.5 (human), Q14524)	IC50, membrane potential assay (hNav1.8 (human), Q9Y5Y9)	Selectivity for Nav1.7, membrane potential assay (hNav1.8 (human), Q9Y5Y9)	IC50, membrane potential assay (hNav1.4 (human), P35499)	Selectivity for Nav1.7, membrane potential assay (hNav1.4 (human), P35499)	IC50, membrane potential assay (* indicates partial inhibition) (hNav1.7 (human), Q15858)
B1	16 µM	63 fold	0.251 µM	1 fold	8 µM	33 fold	5 µM	19 fold	3 µM	14 fold	> 30 µM	> 120 fold	> 30 µM	> 120 fold	10 µM	40 fold	
B2	2 µM	46 fold	0.049 µM	1 fold	2 µM	35 fold	0.658 µM	13 fold	0.301 µM	6 fold	> 30 µM	> 616 fold	> 30 µM	> 616 fold	2 µM	48 fold	
B3	8 µM	61 fold	0.139 µM	1 fold	4 µM	29 fold	2 µM	18 fold	0.566 µM	4 fold	> 30 µM	> 217 fold	> 30 µM	> 217 fold	5 µM	36 fold	
B4	> 30 µM	> 2000 fold	0.013 µM	1 fold	0.241 µM	19 fold	2 µM	159 fold	0.04 µM	3 fold	> 30 µM	> 2000 fold	> 30 µM	> 2000 fold	0.663 µM	52 fold	
B5	> 30 µM	> 1000 fold	0.024 µM	1 fold	0.349 µM	14 fold	3 µM	118 fold	0.147 µM	6 fold	> 30 µM	> 1000 fold	> 30 µM	> 1000 fold	0.852 µM	35 fold	
B6	> 30 µM	> 900 fold	0.031 µM	1 fold	0.754 µM	24 fold	4 µM	134 fold	0.261 µM	8 fold	> 30 µM	> 900 fold	> 30 µM	> 900 fold	3 µM	86 fold	
B7	> 30 µM	> 900 fold	0.031 µM	1 fold	0.856 µM	27 fold	8 µM	260 fold	0.414 µM	13 fold	> 30 µM	> 900 fold	> 30 µM	> 900 fold	3 µM	102 fold	
B8				1 fold	32 µM	63 fold	20 µM	39 fold	38 µM						12 µM	24 fold	0.51 µM
B9	> 30 µM		7 µM	1 fold	15 µM	2 fold	11 µM	2 fold	24 µM	3 fold	6 µM	0.9 fold	> 30 µM	4 fold	12 µM	2 fold	
B10	> 30 µM	> 30 fold	0.934 µM	1 fold	17 µM	19 fold	20 µM	22 fold	8 µM	8 fold	18 µM	20 fold	> 30 µM	> 30 fold	12 µM	12 fold	
B11	0.82 µM	20 fold	0.041 µM	1 fold	0.384 µM	9 fold	5 µM	128 fold	0.172 µM	4 fold	13 µM	326 fold	> 30 µM	> 700 fold	2 µM	49 fold	
B12	1 µM	14 fold		1 fold	0.83 µM	9 fold	6 µM	66 fold	0.378 µM	4 fold	> 30 µM	> 300 fold	> 30 µM	> 300 fold	2 µM	27 fold	
B13	19 µM	68 fold	0.282 µM	1 fold	9 µM	32 fold	6 µM	22 fold	3 µM	10 fold	> 30 µM	> 107 fold	> 30 µM	> 107 fold	11 µM	40 fold	
